The values that follow come from publication PMC10812941, “Selenium-Containing (Hetero)Aryl Hybrids as Potential Antileishmanial Drug Candidates: In Vitro Screening against L. amazonensis” (Biomedicines, 2024).

Several values for one entry are separate records, joined by “and”; a condition that tells them apart may be missing. Equal values may be shown once.

This data set concerns L. amazonensis intracellular amastigotes. Nature of the data set: Anti-amastigote assay in infected murine peritoneal macrophages. The following applies: peritoneal macrophages vs intracellular amastigotes.

As to `C[C@@H]1[C@H](O)[C@@H](C)/C=C/C=C/C=C/C=C/C=C/C=C/C=C/[C@H](O[C@@H]2O[C@H](C)[C@@H](O)[C@H](N)[C@@H]2O)C[C@@H]2O[C@](O)(C[C@@H](O)C[C@@H](O)[C@H](O)CC[C@@H](O)C[C@@H](O)CC(=O)O[C@H]1C)C[C@H](O)[C@H]2C(=O)O` [ANFB, amphotericin B, reference compound], the “SI (peritoneal macrophages/IC50 on amastigotes)” value (“SI” below) is 25.93 and 25.92.

On to `COc1ccccc1[Se]c1c(-c2ccccc2)nc2cc(C)ccn12` [MRK-107], for which the “SI” value is 12.55. Also, the “SI” value (listed as 107) is recorded as 10.92.

Turning to `Cc1ccn2c([Se]c3ccccc3)c(-c3ccccc3)nc2c1` [MRK-113], the “SI” value stood at 10.92. Also, where the note is “listed as 113”, the “SI” value was determined as 12.55.
